Anti-infective test results gathered from many reports (values: NIAID ChemDB through PubChem).

Common to all: host cell toxicity; cells: HEK 293; measure: CC50

CCn is the concentration with n% toxicity to the cells. Conditions beyond the fields shown may differ between rows.

{"structure": "C[C@H]1C(OC(=O)Cc2ccccc2)O[C@@H]2OC3(C)CCC4[C@H](C)CCC1[C@]42OO3", "read by": "ATP / luminescence", "value": ">26 µM"}
{"structure": "O=c1c2cc(O)ccc2oc2cc(O)cc(O)c12", "read by": "sulforhodamine / absorbance", "value": ">50 µM"}
{"structure": "COc1cc([C@@H]2c3cc4c(cc3C[C@H]3COC(=O)[C@@H]32)OCO4)cc(OC)c1OC", "value": "14.3 µg/mL"}
{"structure": "O=C(/C=C/C=C/c1ccc(O)c(O)c1)[Se]c1ccccc1", "read by": "WST", "value": ">100 µM"}
{"structure": "CN1CCc2cn(C)c3c2C1=CC(=O)C3=O", "read by": "resazurin", "value": ">120 µM"}
{"structure": "CC(C)=CC[C@H]1C[C@]2(C[C@H]3CCC(C)(C)C=C3C)C(=O)C3=C(OC(C)(C)CC3)[C@@](C(=O)c3ccccc3)(C2=O)C1(C)C", "read by": "sulforhodamine / absorbance", "value": ">50 µM"}
{"structure": "C[C@@H]1CCC2[C@@H](C)[C@@H](OCCNCCN3CCCCC3)O[C@@H]3OC4(C)CCC1[C@@]23OO4", "read by": "ATP / luminescence", "value": ">13.3 µM"}
{"structure": "C/C(=C\\C=C\\C(C)[C@H]1CC[C@@]2(C)[C@@H]3CC[C@H]4C(C)(C)C(=O)CC[C@]4(C)C3=CC[C@]12C)C(=O)O", "read by": "sulforhodamine / absorbance", "value": ">50 µM"}
{"structure": "C[C@@H]1CCC2[C@@H](C)[C@@H](OCCNCCCn3ccnc3)O[C@@H]3OC4(C)CCC1[C@@]23OO4", "read by": "ATP / luminescence", "value": ">22.7 µM"}
{"structure": "O=C(/C=C/C=C/c1ccc([N+](=O)[O-])cc1)[Se]c1ccccc1", "read by": "WST", "value": ">100 µM"}
{"structure": "CO[C@H]1O[C@@H]2O[C@@]3(C)CC[C@H]4[C@H](C)CC[C@@H]([C@H]1C)[C@@]24OO3", "read by": "ATP / luminescence", "value": ">26 µM"}
{"structure": "C[N+]1=c2cc(N/C=C/c3ccc(O)cc3)c(O)c3c2=C(C=N3)CC1", "read by": "resazurin", "value": "1.4 µM"}
{"structure": "COc1cc(/C=C/C(=O)[Se]c2ccccc2)ccc1O", "read by": "WST", "value": ">100 µM"}
{"structure": "O=C1c2c(O)cc(O)cc2O[C@H](c2ccc(O)cc2)[C@H]1c1c(O)cc(O)c2c(=O)cc(-c3ccc(O)c(O)c3)oc12", "read by": "sulforhodamine / absorbance", "value": ">50 µM"}
{"structure": "Cn1cc2c3c1C(=O)C(NCCc1ccc(O)cc1)=CC3=NCC2", "read by": "resazurin", "value": "1.1 µM"}
{"structure": "CC(C)CNCCO[C@H]1O[C@@H]2OC3(C)CCC4[C@H](C)CCC([C@H]1C)[C@]42OO3", "read by": "ATP / luminescence", "value": ">16 µM"}
{"structure": "O=C(/C=C/C=C/c1ccc(Br)cc1)[Se]c1ccccc1", "read by": "WST", "value": ">100 µM"}
{"structure": "CC1Oc2cc(O)c3c(=O)c4ccc(O)c(O)c4oc3c2C1(C)C", "read by": "sulforhodamine / absorbance", "value": "6.12 µM"}